Target: HLA-A*0202 (human), P30375
Assay: competition with 125I-labeled probe for purified HLA, gel filtration

Row | Binder | IC50 [µM]
1 | ALSTGLIHL (modifications not checked) [HCV NS1/E2 686 peptide 1013.12] | 7.17
2 | HLHQNIVDV (modifications not checked) [HCV NS1/E2 696 peptide 939.14] | 3.07

Source: patent US20090304746A1
